Assay results taken from patent US9988424 (DUKE UNIVERSITY, dated 2018).

Assays:
B.63521_V1V2 Tags = molecular target: T1, B.63521_V1V2 Tags; experiment: ELISA, OD405 at 10 ug/ml mAb
T1 Env construct: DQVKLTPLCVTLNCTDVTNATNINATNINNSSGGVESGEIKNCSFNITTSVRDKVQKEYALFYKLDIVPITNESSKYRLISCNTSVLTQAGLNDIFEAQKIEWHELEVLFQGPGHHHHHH

B.Case A2 V1/V2 Tags = molecular target: T2, B.Case A2 V1/V2 Tags; experiment: ELISA, OD405 at 10 ug/ml mAb
T2 Env construct: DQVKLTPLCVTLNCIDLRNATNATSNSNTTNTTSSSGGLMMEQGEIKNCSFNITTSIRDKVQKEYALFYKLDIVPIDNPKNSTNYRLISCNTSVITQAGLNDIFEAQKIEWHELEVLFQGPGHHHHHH

C.1086 gp140 = molecular target: T3, C.1086 gp140; experiment: ELISA, OD405 at 10 ug/ml mAb
T3 construct: also called C.1086gp140C
T3 chain: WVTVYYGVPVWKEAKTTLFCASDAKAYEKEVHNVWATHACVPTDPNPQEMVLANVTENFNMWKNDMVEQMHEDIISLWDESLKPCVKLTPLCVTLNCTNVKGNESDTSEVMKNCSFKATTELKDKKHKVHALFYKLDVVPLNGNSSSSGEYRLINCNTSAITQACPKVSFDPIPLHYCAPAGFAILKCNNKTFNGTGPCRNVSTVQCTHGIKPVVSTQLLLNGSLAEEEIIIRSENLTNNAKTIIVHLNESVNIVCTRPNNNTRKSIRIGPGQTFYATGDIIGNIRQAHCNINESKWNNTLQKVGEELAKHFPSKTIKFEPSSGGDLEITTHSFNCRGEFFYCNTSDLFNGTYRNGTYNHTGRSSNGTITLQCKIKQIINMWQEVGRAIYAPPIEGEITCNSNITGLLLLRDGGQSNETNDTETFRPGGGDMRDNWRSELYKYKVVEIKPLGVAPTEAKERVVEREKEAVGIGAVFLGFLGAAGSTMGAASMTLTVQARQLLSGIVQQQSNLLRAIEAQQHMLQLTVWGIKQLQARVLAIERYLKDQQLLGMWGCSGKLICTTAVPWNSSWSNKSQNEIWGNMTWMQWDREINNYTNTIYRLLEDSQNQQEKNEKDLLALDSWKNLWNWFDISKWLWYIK

AE.con gp140CF = molecular target: T4, AE.con gp140CF; experiment: ELISA, OD405 at 10 ug/ml mAb
T4 construct: also called AE.con.env03 gp140CF
T4 chain: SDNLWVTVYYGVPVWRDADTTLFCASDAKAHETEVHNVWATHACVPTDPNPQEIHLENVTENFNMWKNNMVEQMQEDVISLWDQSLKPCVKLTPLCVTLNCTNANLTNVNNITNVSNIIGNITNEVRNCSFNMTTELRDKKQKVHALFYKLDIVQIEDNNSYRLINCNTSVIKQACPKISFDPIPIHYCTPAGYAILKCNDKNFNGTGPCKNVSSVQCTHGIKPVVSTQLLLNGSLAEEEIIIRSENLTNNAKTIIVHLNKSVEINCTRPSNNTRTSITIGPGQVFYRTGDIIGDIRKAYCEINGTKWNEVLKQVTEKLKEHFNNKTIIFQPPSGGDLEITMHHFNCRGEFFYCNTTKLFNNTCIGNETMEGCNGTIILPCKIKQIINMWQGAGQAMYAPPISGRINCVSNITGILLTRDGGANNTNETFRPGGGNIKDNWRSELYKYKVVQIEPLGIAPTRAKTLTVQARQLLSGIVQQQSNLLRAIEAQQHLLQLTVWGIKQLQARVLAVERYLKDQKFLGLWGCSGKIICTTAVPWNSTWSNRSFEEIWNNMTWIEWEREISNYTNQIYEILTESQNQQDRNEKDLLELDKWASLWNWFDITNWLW

D.9009SA V1V2 Tags = molecular target: T5, D.9009SA V1V2 Tags; experiment: ELISA, OD405 at 10 ug/ml mAb
T5 Env construct: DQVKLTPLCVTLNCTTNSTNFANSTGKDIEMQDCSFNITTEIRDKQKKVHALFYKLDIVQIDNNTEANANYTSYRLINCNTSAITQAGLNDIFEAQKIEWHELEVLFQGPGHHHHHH

Env of SHIV SF162P3 = Env of SHIV SF162P3 (SHIV); experiment: cell-based or functional assay
Env of SHIV-BaL = Env of SHIV-BaL (SHIV); experiment: cell-based or functional assay
AE.97CNG2XF gp140CF = molecular target: T6, AE.97CNG2XF gp140CF (HIV-1); experiment: ELISA
T6 construct: also called E.97CNGX2F gp140CF
T6 chain: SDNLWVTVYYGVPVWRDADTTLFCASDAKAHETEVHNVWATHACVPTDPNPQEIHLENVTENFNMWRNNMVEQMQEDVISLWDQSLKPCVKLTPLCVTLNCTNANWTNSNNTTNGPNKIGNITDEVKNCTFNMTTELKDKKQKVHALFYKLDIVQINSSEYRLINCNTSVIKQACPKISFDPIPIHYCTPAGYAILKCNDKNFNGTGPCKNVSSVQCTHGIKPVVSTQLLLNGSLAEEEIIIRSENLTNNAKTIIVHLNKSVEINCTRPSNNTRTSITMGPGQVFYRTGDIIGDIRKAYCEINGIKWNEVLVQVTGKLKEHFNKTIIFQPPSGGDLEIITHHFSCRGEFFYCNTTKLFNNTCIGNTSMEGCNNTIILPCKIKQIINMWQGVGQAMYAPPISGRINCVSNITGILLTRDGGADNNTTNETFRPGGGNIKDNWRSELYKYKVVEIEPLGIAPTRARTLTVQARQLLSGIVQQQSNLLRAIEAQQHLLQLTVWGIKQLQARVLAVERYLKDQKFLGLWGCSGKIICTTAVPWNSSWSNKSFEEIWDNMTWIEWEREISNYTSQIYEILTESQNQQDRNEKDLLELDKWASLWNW

B1: CH58 (antibody, V domains shown)
VH: EVQLVQSGAEVKKPGESLKISCKGSGYRFTSYWIVWVRQMPGKGLEWMGIIYPGDFDTKYSPSFQGQVTISADKSISTAYLQWSSLKASDTAMYYCARLGGRYYHDSSGYYYLDYWGQGTLVTVSS
VL: NFMLTQPHSVSESPGKTVTISCTRSSGSVASDYVQWYQQRPGSAPTTVVYEDNQRPSGVPDRFSGSIDSSSNSASLTISGLKTEDEADYYCQSYDNSSWVFGGGTKLTVL
B1: binds (B.63521_V1V2 Tags); binds (B.Case A2 V1/V2 Tags); binds (C.1086 gp140). For the same binder, the binding result (AE.con gp140CF) was “binds”, the binding result (D.9009SA V1V2 Tags) was “binds” and the “EC50, neutralization of SHIV B.SF162P3 (tier 2)” value (Env of SHIV SF162P3) was greater than 50 µg/mL. For the same binder, the “EC50, neutralization of SHIV B.BaL (tier 2)” value (Env of SHIV-BaL) was greater than 50 µg/mL and the EC50 (AE.97CNG2XF gp140CF) was 0.07 µg/mL.
